# Laboratory results as given in publication PMC9270327 (Communications Biology, 2022).
# Chains of the proteins cited; added tags and fusions are not shown.
# UniProt O15393, whole entry: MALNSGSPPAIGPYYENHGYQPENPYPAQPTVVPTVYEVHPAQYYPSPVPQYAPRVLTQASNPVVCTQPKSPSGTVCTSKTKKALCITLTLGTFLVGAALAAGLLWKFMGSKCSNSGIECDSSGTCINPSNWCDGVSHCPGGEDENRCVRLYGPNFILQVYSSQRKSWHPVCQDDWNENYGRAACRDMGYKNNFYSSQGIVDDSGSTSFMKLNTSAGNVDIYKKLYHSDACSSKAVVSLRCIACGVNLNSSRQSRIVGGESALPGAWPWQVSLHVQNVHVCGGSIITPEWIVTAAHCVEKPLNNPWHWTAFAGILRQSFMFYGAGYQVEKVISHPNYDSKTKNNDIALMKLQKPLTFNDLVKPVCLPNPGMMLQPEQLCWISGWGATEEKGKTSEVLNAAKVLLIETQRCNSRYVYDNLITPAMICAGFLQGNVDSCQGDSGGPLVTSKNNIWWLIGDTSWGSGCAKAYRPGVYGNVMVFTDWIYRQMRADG
# Where two headings read alike, the source gives them in different places.
# How the values were obtained:
# TMPRSS2 [1] = molecular target: T1, TMPRSS2 (Homo sapiens, UniProt O15393)
# TMPRSS2 [2] = molecular target: T1, TMPRSS2; remark: listed apart in the source
# [3] = Stability and epimerization in 25% human serum by analytical HPLC; format: in vitro ADME
smiles,measurement,setting,value
CC(=O)N[C@H](CCCNC(=N)N)C(=O)N[C@@H](CC1CCC1)C(=O)NC(CCCNC(=N)N)C(=O)c1nc2ccccc2s1 (stereo partly shown),"TMPRSS2 activity, Mean (0 nM = 100)","TMPRSS2 [1]; inhibitor 16.65 nM, 120 min in serum",101.8353
same,"TMPRSS2 activity, Mean (0 nM = 100)","TMPRSS2 [1]; inhibitor 16.65 nM, 24 h in serum",98.9897
same,"TMPRSS2 activity, Mean (0 nM = 100)","TMPRSS2 [1]; inhibitor 16.65 nM, 10 d in serum",90.5858
same,"TMPRSS2 activity, Mean (0 nM = 100)","TMPRSS2 [1]; inhibitor 166.5 nM, 0 min in serum",78.1855
same,"TMPRSS2 activity, Mean (0 nM = 100)","TMPRSS2 [1]; inhibitor 166.5 nM, 30 min in serum",83.7337
same,"TMPRSS2 activity, Mean (0 nM = 100)","TMPRSS2 [1]; inhibitor 166.5 nM, 60 min in serum",84.1180
same,"TMPRSS2 activity, Mean (0 nM = 100)","TMPRSS2 [1]; inhibitor 166.5 nM, 120 min in serum",82.0211
same,"TMPRSS2 activity, Mean (0 nM = 100)","TMPRSS2 [1]; inhibitor 166.5 nM, 24 h in serum",82.2052
same,"TMPRSS2 activity, Mean (0 nM = 100)","TMPRSS2 [1]; inhibitor 166.5 nM, 10 d in serum",81.1301
same,"TMPRSS2 activity, Mean (0 nM = 100)","TMPRSS2 [1]; inhibitor 1665 nM, 0 min in serum",25.5237
same,"TMPRSS2 activity, Mean (0 nM = 100)","TMPRSS2 [1]; inhibitor 1665 nM, 30 min in serum",32.2152
same,"TMPRSS2 activity, Mean (0 nM = 100)","TMPRSS2 [1]; inhibitor 1665 nM, 60 min in serum",26.3198
same,"TMPRSS2 activity, Mean (0 nM = 100)","TMPRSS2 [1]; inhibitor 1665 nM, 120 min in serum",32.8991
same,"TMPRSS2 activity, Mean (0 nM = 100)","TMPRSS2 [1]; inhibitor 1665 nM, 24 h in serum",36.4597
same,"TMPRSS2 activity, Mean (0 nM = 100)","TMPRSS2 [1]; inhibitor 1665 nM, 10 d in serum",42.2774
same,"Residual TMPRSS2 activity, Mean (0 nM = 100)","TMPRSS2 [2]; inhibitor 0.0167 nM, 0 min in cell culture medium",99.8464
same,"Residual TMPRSS2 activity, Mean (0 nM = 100)","TMPRSS2 [2]; inhibitor 0.0167 nM, 30 min in cell culture medium",97.1211
same,"Residual TMPRSS2 activity, Mean (0 nM = 100)","TMPRSS2 [2]; inhibitor 0.0167 nM, 60 min in cell culture medium",98.7825
same,"Residual TMPRSS2 activity, Mean (0 nM = 100)","TMPRSS2 [2]; inhibitor 0.0167 nM, 120 min in cell culture medium",93.642
same,"Residual TMPRSS2 activity, Mean (0 nM = 100)","TMPRSS2 [2]; inhibitor 0.0167 nM, 24 h in cell culture medium",94.4491
same,"Residual TMPRSS2 activity, Mean (0 nM = 100)","TMPRSS2 [2]; inhibitor 0.0167 nM, 10 d in cell culture medium",98.6379
same,"Residual TMPRSS2 activity, Mean (0 nM = 100)","TMPRSS2 [2]; inhibitor 0.0167 nM, positive ctrl",96.2013
same,"Residual TMPRSS2 activity, Mean (0 nM = 100)","TMPRSS2 [2]; inhibitor 0.167 nM, 0 min in cell culture medium",98.5685
same,"Residual TMPRSS2 activity, Mean (0 nM = 100)","TMPRSS2 [2]; inhibitor 0.167 nM, 30 min in cell culture medium",99.0315
same,"Residual TMPRSS2 activity, Mean (0 nM = 100)","TMPRSS2 [2]; inhibitor 0.167 nM, 60 min in cell culture medium",101.078
same,"Residual TMPRSS2 activity, Mean (0 nM = 100)","TMPRSS2 [2]; inhibitor 0.167 nM, 120 min in cell culture medium",96.3071
same,"Residual TMPRSS2 activity, Mean (0 nM = 100)","TMPRSS2 [2]; inhibitor 0.167 nM, 24 h in cell culture medium",95.5583
same,"Residual TMPRSS2 activity, Mean (0 nM = 100)","TMPRSS2 [2]; inhibitor 0.167 nM, 10 d in cell culture medium",98.6274
same,"Residual TMPRSS2 activity, Mean (0 nM = 100)","TMPRSS2 [2]; inhibitor 0.167 nM, positive ctrl",98.3227
same,"Residual TMPRSS2 activity, Mean (0 nM = 100)","TMPRSS2 [2]; inhibitor 1.665 nM, 0 min in cell culture medium",99.6928
same,"Residual TMPRSS2 activity, Mean (0 nM = 100)","TMPRSS2 [2]; inhibitor 1.665 nM, 30 min in cell culture medium",99.7944
same,"Residual TMPRSS2 activity, Mean (0 nM = 100)","TMPRSS2 [2]; inhibitor 1.665 nM, 60 min in cell culture medium",99.008
same,"Residual TMPRSS2 activity, Mean (0 nM = 100)","TMPRSS2 [2]; inhibitor 1.665 nM, 120 min in cell culture medium",92.9853
same,"Residual TMPRSS2 activity, Mean (0 nM = 100)","TMPRSS2 [2]; inhibitor 1.665 nM, 24 h in cell culture medium",97.5811
same,"Residual TMPRSS2 activity, Mean (0 nM = 100)","TMPRSS2 [2]; inhibitor 1.665 nM, 10 d in cell culture medium",97.9533
same,"Residual TMPRSS2 activity, Mean (0 nM = 100)","TMPRSS2 [2]; inhibitor 1.665 nM, positive ctrl",107.192
same,"Residual TMPRSS2 activity, Mean (0 nM = 100)","TMPRSS2 [2]; inhibitor 16.65 nM, 0 min in cell culture medium",95.5029
same,"Residual TMPRSS2 activity, Mean (0 nM = 100)","TMPRSS2 [2]; inhibitor 16.65 nM, 30 min in cell culture medium",97.2869
same,"Residual TMPRSS2 activity, Mean (0 nM = 100)","TMPRSS2 [2]; inhibitor 16.65 nM, 60 min in cell culture medium",94.2688
same,"Residual TMPRSS2 activity, Mean (0 nM = 100)","TMPRSS2 [2]; inhibitor 16.65 nM, 120 min in cell culture medium",89.8587
same,"Residual TMPRSS2 activity, Mean (0 nM = 100)","TMPRSS2 [2]; inhibitor 16.65 nM, 24 h in cell culture medium",95.046
same,"Residual TMPRSS2 activity, Mean (0 nM = 100)","TMPRSS2 [2]; inhibitor 16.65 nM, 10 d in cell culture medium",97.0792
same,"Residual TMPRSS2 activity, Mean (0 nM = 100)","TMPRSS2 [2]; inhibitor 16.65 nM, positive ctrl",91.2788
same,"Residual TMPRSS2 activity, Mean (0 nM = 100)","TMPRSS2 [2]; inhibitor 166.5 nM, 0 min in cell culture medium",65.4297
same,"Residual TMPRSS2 activity, Mean (0 nM = 100)","TMPRSS2 [2]; inhibitor 166.5 nM, 30 min in cell culture medium",65.6053
same,"Residual TMPRSS2 activity, Mean (0 nM = 100)","TMPRSS2 [2]; inhibitor 166.5 nM, 60 min in cell culture medium",82.5901
same,"Residual TMPRSS2 activity, Mean (0 nM = 100)","TMPRSS2 [2]; inhibitor 166.5 nM, 120 min in cell culture medium",68.4433
same,"Residual TMPRSS2 activity, Mean (0 nM = 100)","TMPRSS2 [2]; inhibitor 166.5 nM, 24 h in cell culture medium",76.4392
same,"Residual TMPRSS2 activity, Mean (0 nM = 100)","TMPRSS2 [2]; inhibitor 166.5 nM, 10 d in cell culture medium",79.9649
same,"Residual TMPRSS2 activity, Mean (0 nM = 100)","TMPRSS2 [2]; inhibitor 166.5 nM, positive ctrl",63.5641
same,"Residual TMPRSS2 activity, Mean (0 nM = 100)","TMPRSS2 [2]; inhibitor 1665 nM, 0 min in cell culture medium",16.8827
same,"Residual TMPRSS2 activity, Mean (0 nM = 100)","TMPRSS2 [2]; inhibitor 1665 nM, 30 min in cell culture medium",10.5937
same,"Residual TMPRSS2 activity, Mean (0 nM = 100)","TMPRSS2 [2]; inhibitor 1665 nM, 60 min in cell culture medium",17.7707
same,"Residual TMPRSS2 activity, Mean (0 nM = 100)","TMPRSS2 [2]; inhibitor 1665 nM, 120 min in cell culture medium",20.9775
same,"Residual TMPRSS2 activity, Mean (0 nM = 100)","TMPRSS2 [2]; inhibitor 1665 nM, 24 h in cell culture medium",23.677
same,"Residual TMPRSS2 activity, Mean (0 nM = 100)","TMPRSS2 [2]; inhibitor 1665 nM, 10 d in cell culture medium",39.3154
same,"Residual TMPRSS2 activity, Mean (0 nM = 100)","TMPRSS2 [2]; inhibitor 1665 nM, positive ctrl",12.9255
same,time to epimerization of the P1 Arg Cα-atom,[3],≤ 30 min
